PubChem BioAssay AID504761, Drosophila RNAi Screening Center – 2011

Screen: 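Genome-wide fly cell screen for genes dengue virus requires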 (primary screen)
Cells: D.Mel-2 cells from Drosophila
Reagent: long dsRNA against Drosophila genes
Conditions: infection with dengue virus type 2; dose and infection time not stated
Read-out: 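Cells stained for dengue envelope protein and imaged; percent of infected cells per well on duplicate plates, ranked by infection, with stained nuclei counted for cell number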
Scale: infection score: higher = more virus-infected cells; cell count: higher = more cells in the well
Hit rule: 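Very low infection ranking in both replicate wells (chance probability at most 0.065), then a retest showing infection dropped 1.5-fold or more at p below 0.05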
Calls: active = confirmed: knock-down lowers infection; inactive = not picked or not confirmed
The screen tested about 22,000 reagents; shown is a random part of those that have a named target and a result. Over the whole deposit, 116 (0.52%) are marked active. 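Calls depend on retest data that are not deposited; infection was ranked per plate without normalising between plates; the unit of the infection score is not given.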 Raw values vary from plate to plate and are shown uncorrected. Not all columns of the deposit are shown. The record does not give: the amount of reagent, the time to read-out.

no.	target gene	dsRNA	infection score, replicate 1	infection score, replicate 2	cell count, replicate 1	activity call
1	betaTub65B (beta-Tubulin at 65B)	DRSC11393	1.81	9.81	5637	inactive
2	Ubc4 (Ubiquitin conjugating enzyme 4)	DRSC11312	7.46	7.58	6369	inactive
3	Marf1 (Meiosis regulator and mRNA stability factor 1)	DRSC03747	8.18	9.28	6857	inactive
4	Marf1 (Meiosis regulator and mRNA stability factor 1)	DRSC03774	0.58	0.93	6258	inactive
5	CIA30 (Complex I intermediate-associated protein, 30 kDa)	DRSC16266	1.72	4.99	6639	inactive
6	CG11777	DRSC06081	12	6.4	5501	inactive
7	CG11777	DRSC26750	3.66	6.69	6063	inactive
8	Snx3 (Sorting nexin 3)	DRSC16027	1.65	5.57	6315	inactive
9	Snx3 (Sorting nexin 3)	DRSC28751	14.8	13.4	4898	inactive
10	mRNA-cap (mRNA-capping-enzyme)	DRSC19789	40.8	12.1	3432	inactive
11	comm3	DRSC09993	1.73	4.54	5707	inactive
12	comm3	DRSC09994	0.8	3.62	5496	inactive
13	comm3	DRSC09995	0.81	1.52	5817	inactive
14	nord	DRSC04210	9.59	25.2	6601	inactive
15	nord	DRSC04361	7.07	7	6250	inactive
16	Est-6 (Esterase 6)	DRSC11162	1.05	1.47	6450	inactive
17	Pgcl (Pepsinogen C-like)	DRSC18815	0.79	10.4	6581	inactive
18	CG6409	DRSC10630	9.77	23.7	5691	inactive
19	CG6409	DRSC22330	2.68	2.83	6379	inactive
20	CG6409	DRSC27637	1.76	1.14	6465	inactive
21	ocm (over compensating males)	DRSC04360	10.9	27.5	5978	inactive
22	ocm (over compensating males)	DRSC26248	9.51	3.68	6065	inactive
23	Hex-t1 (Hexokinase testis 1)	DRSC16701	7.76	9.96	5321	inactive
24	Hex-t1 (Hexokinase testis 1)	DRSC26127	16.2	1.71	6162	inactive
25	Or67c (Odorant receptor 67c)	DRSC11242	2.63	3.15	5934	inactive
26	AhcyL2 (Adenosylhomocysteinase like 2)	DRSC14107	2.99	2.52	6728	inactive
27	CG33296	DRSC00998	4.61	6.28	6272	inactive
28	CG33296	DRSC23839	2.82	4.39	6846	inactive
29	CG12713	DRSC09900	5.55	3.06	6020	inactive
30	CG12713	DRSC24697	12.3	13.5	5780	inactive
31	CG6005	DRSC15945	1.98	5.35	6501	inactive
32	Xpc (Xeroderma pigmentosum, complementation group C)	DRSC07654	27.6	11.2	5887	inactive
33	CG1986	DRSC18197	5.31	3.03	6028	inactive
34	CG1986	DRSC27916	13.9	3.87	6252	inactive
35	CG15362	DRSC00392	10.7	2.62	6897	inactive
36	Odc1 (Ornithine decarboxylase 1)	DRSC07482	1.22	3.04	5884	inactive
37	Odc1 (Ornithine decarboxylase 1)	DRSC29610	8.84	15.1	4944	inactive
38	CG13566	DRSC04203	5.9	21.7	2982	inactive
39	CG13566	DRSC25377	7.79	7.88	6610	inactive
40	Strump (Strumpellin)	DRSC09872	1.53	4.34	6160	inactive
41	ND-MLRQ (NADH dehydrogenase (ubiquinone) MLRQ subunit)	DRSC11913	3.5	8.63	6026	inactive
42	CG15249	DRSC17978	3.29	5.85	6597	inactive
43	CG2991	DRSC00559	4.35	2.06	5982	inactive
44	CG2991	DRSC26300	12.7	5.75	5273	inactive
45	DEF8 (differentially expressed in FDCP 8 homolog)	DRSC09840	9.85	25	5655	inactive
46	CG31915	DRSC03000	2.32	1.5	5788	inactive
47	knrl (knirps-like)	DRSC23245	3.62	24.7	7145	inactive
48	knrl (knirps-like)	DRSC28310		16.5	367	inactive
49	CG1638	DRSC15132	2.63	4.19	7059	inactive
50	CG1638	DRSC29986	12.4	10.2	6259	inactive
51	eEF1beta (eukaryotic translation elongation factor 1 beta)	DRSC07419	5.29	5.84	6879	inactive
52	eEF1beta (eukaryotic translation elongation factor 1 beta)	DRSC24367	4.52	2.8	6321	inactive
53	CG4558	DRSC18369	2.49	6.29	6190	inactive
54	ksh (kish)	DRSC19554	1.58	1.1	6060	inactive
55	ksh (kish)	DRSC28147	11.7	14.8	5954	inactive
56	Mal-A6 (Maltase A6)	DRSC07233	16.3	10.2	5605	inactive
57	Mal-A6 (Maltase A6)	DRSC27167	14.3	22.4	4513	inactive
58	CG12909	DRSC06224	17.4	4.19	5732	inactive
59	CG12909	DRSC27706	8.02	28.8	6621	inactive

Entries above whose target name begins with H or h:
target gene	dsRNA	infection score, replicate 1	infection score, replicate 2	cell count, replicate 1	activity call
Hex-t1 (Hexokinase testis 1)	DRSC16701	7.76	9.96	5321	inactive
Hex-t1 (Hexokinase testis 1)	DRSC26127	16.2	1.71	6162	inactive
